Data published in patent publication US6130250A, “Veterinary use of a pleuromutilin derivative” (priority 1996, dated 2000).
Structures can show the parent of a compound that is named as a salt.

System: Serpulina hyodysenteriae
Experiment: MIC determination on agar, 10 S. hyodysenteriae strains
Assay type: cell-based

## C=C[C@]1(C)C[C@@H](OC(=O)CSC(C)(C)CNC(=O)[C@H](N)C(C)C)[C@]2(C)[C@H](C)CC[C@]3(CCC(=O)[C@H]32)[C@@H](C)[C@@H]1O [valnemulin hydrochloride, 14-O-[1-[(R)-2-amino-3-methylbutyrylamino]-2-methylpropan-2-ylthioacetyl]mutilin]
  number of strains with MIC 0.0625 μg/ml: 3
